{"source": "PubChem BioAssay AID504761 (Drosophila RNAi Screening Center, 2011)", "aim": "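Genome-wide fly cell screen for genes dengue virus requires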 (primary screen)", "system": "D.Mel-2 cells from Drosophila", "reagent": "long dsRNA against Drosophila genes", "conditions": "infection with dengue virus type 2; dose and infection time not stated", "measurement": "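Per well on two replicate plates, imaging gave the percent of cells positive for viral envelope protein, ranked by infection, and a nuclear count of cells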", "direction": "infection score: higher = more virus-infected cells; cell count: higher = more cells in the well", "active means": "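Very low infection ranking in both replicate wells (chance probability at most 0.065), then a retest showing infection dropped 1.5-fold or more at p below 0.05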", "meaning of the calls": "active = confirmed: knock-down lowers infection; inactive = not picked or not confirmed", "note": "The screen tested about 22,000 reagents; shown is an unselected part of those with a known target gene and a result. In the full data, 116 (0.52%) are marked active. 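Calls depend on retest data that are not deposited; infection was ranked per plate without normalising between plates; the unit of the infection score is not given.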 Raw values vary from plate to plate and are shown uncorrected. A number with no mark means an inactive call. Not all columns of the deposit are shown. The record does not give: the amount of reagent, the time to read-out."}
The first 2 records, ahead of the listing:
{"Target gene": "CG11668", "dsRNA": "DRSC14341", "infection score, replicate 1": 1.15, "cell count, replicate 1": 6611}
{"Target gene": "CG33340", "dsRNA": "DRSC14615", "infection score, replicate 1": 9.35, "cell count, replicate 1": 5252}

The listing, repeating the preview:
{"Target gene": "CG11668", "dsRNA": "DRSC14341", "infection score, replicate 1": 1.15, "cell count, replicate 1": 6611}
{"Target gene": "CG33340", "dsRNA": "DRSC14615", "infection score, replicate 1": 9.35, "cell count, replicate 1": 5252}
{"Target gene": "CG33340", "dsRNA": "DRSC26638", "infection score, replicate 1": 5.09, "cell count, replicate 1": 6618}
{"Target gene": "Klp59D", "dsRNA": "DRSC04118", "infection score, replicate 1": 13.5, "cell count, replicate 1": 5578}
{"Target gene": "Klp59D", "dsRNA": "DRSC24436", "infection score, replicate 1": 13.2, "cell count, replicate 1": 6014}
{"Target gene": "AsnRS", "dsRNA": "DRSC01990", "infection score, replicate 1": 12.2, "cell count, replicate 1": 6360}
{"Target gene": "mad2", "dsRNA": "DRSC10274", "infection score, replicate 1": 1.19, "cell count, replicate 1": 4272}
{"Target gene": "Npc2e", "dsRNA": "DRSC15522", "infection score, replicate 1": 7.16, "cell count, replicate 1": 6468}
{"Target gene": "Npc2e", "dsRNA": "DRSC22338", "infection score, replicate 1": 2.65, "cell count, replicate 1": 6223}
{"Target gene": "psidin", "dsRNA": "DRSC15660", "infection score, replicate 1": 2.95, "cell count, replicate 1": 6604}
{"Target gene": "Chd64", "dsRNA": "DRSC08649", "infection score, replicate 1": 5.9, "cell count, replicate 1": 5750}
{"Target gene": "Chd64", "dsRNA": "DRSC28823", "cell count, replicate 1": 471}
